PubChem BioAssay AID624099, ICCB-Longwood – 2012

- Test: 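Knock-downs relieving repression by E2 of an HPV18 LCR luciferase reporter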 (primary screen)
- Cells: human C33A cervical carcinoma cells (HPV-negative) stably expressing BPV1 E2 and an HPV18 LCR luciferase reporter
- Knock-down reagent: siRNA pool against human genes, 40 nM
- Duration: 72 h
- Detection: 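Per-well luciferase luminescence, z-scored on each plate against the plate mean and SD with control wells left out, then averaged across three replicate plates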
- Direction: mean z-score and z-score: higher = stronger reporter signal, weaker E2 silencing
- Hit rule: 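Mean z ≥ 2 together with z ≥ 2 in two or more of the three replicates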
Here is a random part of about 21,000 deposited reagents. Over the whole deposit, 497 (2.4%) got an active call. 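Higher z means weaker E2 silencing; only reporter increases were scored, and knock-downs that hurt cell survival may mask genuine repressor factors.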

ZNF653
- mean z-score: 1.22
- z-score, replicate A: 1.62
- z-score, replicate B: 1.15
- z-score, replicate C: 0.89
- outcome: inactive

PIP5K1P1
- mean z-score: -0.69
- z-score, replicate A: -0.4
- z-score, replicate B: -0.77
- z-score, replicate C: -0.91
- outcome: inactive

CXXC5
- mean z-score: -0.62
- z-score, replicate A: -0.16
- z-score, replicate B: -1.03
- z-score, replicate C: -0.67
- outcome: inactive

FYN
- mean z-score: 0.7
- z-score, replicate A: 0.76
- z-score, replicate B: 0.54
- z-score, replicate C: 0.81
- outcome: inactive

SDHA
- mean z-score: 0.48
- z-score, replicate A: 0.64
- z-score, replicate B: 0.49
- z-score, replicate C: 0.31
- outcome: inactive

MSRB2
- mean z-score: 0.39
- z-score, replicate A: -0.09
- z-score, replicate B: 0.51
- z-score, replicate C: 0.74
- outcome: inactive

STEAP2
- mean z-score: -1.05
- z-score, replicate A: -0.84
- z-score, replicate B: -1.08
- z-score, replicate C: -1.23
- outcome: inactive

TMEM81
- mean z-score: -1.14
- z-score, replicate A: -1.46
- z-score, replicate B: -0.33
- z-score, replicate C: -1.64
- outcome: inactive

RORB
- mean z-score: 0.81
- z-score, replicate A: 0.69
- z-score, replicate B: 0.94
- z-score, replicate C: 0.81
- outcome: inactive

CARF
- mean z-score: 0.37
- z-score, replicate A: 0.67
- z-score, replicate B: 0.27
- z-score, replicate C: 0.17
- outcome: inactive

TTC9C
- mean z-score: 0.4
- z-score, replicate A: 0.64
- z-score, replicate B: 0.4
- z-score, replicate C: 0.15
- outcome: inactive

TMED8
- mean z-score: -0.18
- z-score, replicate A: 0
- z-score, replicate B: -0.43
- z-score, replicate C: -0.1
- outcome: inactive

AGRN
- mean z-score: 1
- z-score, replicate A: 0.79
- z-score, replicate B: 1.42
- z-score, replicate C: 0.81
- outcome: inactive

MRPS2
- mean z-score: -0.28
- z-score, replicate A: -0.16
- z-score, replicate B: -0.28
- z-score, replicate C: -0.4
- outcome: inactive

GPX4
- mean z-score: 0.27
- z-score, replicate A: -0.27
- z-score, replicate B: -0.16
- z-score, replicate C: 1.23
- outcome: inactive

FAHD2B
- mean z-score: 0.02
- z-score, replicate A: 0.15
- z-score, replicate B: -0.12
- z-score, replicate C: 0.04
- outcome: inactive

CRYGB
- mean z-score: 2.4
- z-score, replicate A: 2.22
- z-score, replicate B: 2.68
- z-score, replicate C: 2.3
- outcome: active

NIFK
- mean z-score: 0.11
- z-score, replicate A: 0.32
- z-score, replicate B: 0.34
- z-score, replicate C: -0.33
- outcome: inactive

DAAM2
- mean z-score: 1.4
- z-score, replicate A: 0.46
- z-score, replicate B: 1.86
- z-score, replicate C: 1.89
- outcome: inactive

CRY1
- mean z-score: -0.03
- z-score, replicate A: -0.15
- z-score, replicate B: 0
- z-score, replicate C: 0.07
- outcome: inactive

LOC388459 (retired record)
- mean z-score: 0.59
- z-score, replicate A: 0.2
- z-score, replicate B: 0.69
- z-score, replicate C: 0.89
- outcome: inactive

A run of entries from the list above, for reference:
FYN
- mean z-score: 0.7
- z-score, replicate A: 0.76
- z-score, replicate B: 0.54
- z-score, replicate C: 0.81
- outcome: inactive

SDHA
- mean z-score: 0.48
- z-score, replicate A: 0.64
- z-score, replicate B: 0.49
- z-score, replicate C: 0.31
- outcome: inactive
